# Results as given in US7582611B2, “Motilide compounds” (Pfizer Inc., priority 2005, dated 2009).
# System: Streptococcus pneumoniae ATCC 6301
# Assay: Evaluation of antibacterial activity (MIC, serial dilutions on 96-well microtiter plates)
# Format: cell-based
# Conditions: Streptococcus pneumoniae ATCC 6301 (erythromycin A sensitive strain)
smiles,measurement,value
CC[C@H]1OC(=O)[C@H](C)[C@@H](O[C@H]2C[C@@](C)(OC)C[C@H](C)O2)[C@H](C)[C@@H](O[C@@H]2O[C@H](C)C[C@H](N(C)C(C)C)[C@H]2O)[C@](C)(O)C[C@@H](C)[C@H](OCC(N)=O)[C@H](C)[C@@H](O)[C@]1(C)O,"Antibacterial Activity (MIC, μg/mL)",>129 µg/mL
